Assays:
Assay type in all cases: biochemical
A/Fukui H3N2 wt NA = A/Fukui H3N2 wt NA (Influenza A virus, UniProt A0A0F6NYK2); conditions: read-out: IC50 in the enzyme inhibition assay, A/Fukui H3N2
[1] = target: B/Florida wt (B/Florida/4/2006) NA (Influenza B virus, UniProt J7JZT1)
[2] = target: Auckland pH1N1 wt (A/Auckland/3/2009) NA (Influenza A virus, UniProt C3W5S3)

Zanamivir
IC50 (A/Fukui H3N2 wt NA): 3.8 nM
IC50 [1]: 3.9 nM
IC50 [2]: 0.6 nM
